Values after ≈ are worked out from the molar mass of the structure shown.
Tested on: Cryptococcus neoformans
Assay: Antifungal activity against Cryptococcus neoformans ATCC 14116 assessed as reduction in fungal growth incubated for 72 hrs by CLSI broth microdilution method
Type: functional

## CCCC(=O)O[C@@H]1[C@@H](OC(=O)CCC)[C@]2(C)[C@@]3(C)CCC(C)=C[C@H]3O[C@H]1[C@@]21CO1
  MIC90: > 50 µg/mL

## CC(=O)O[C@@H]1[C@@H](O)[C@]2(C)[C@@]3(C)CCC(C)=C[C@H]3O[C@H]1[C@@]21CO1
  MIC90: > 50 µg/mL

## CC(=O)O[C@@H]1[C@@H](OC(C)=O)[C@]2(C)[C@@]3(C)CCC(C)=C[C@H]3O[C@H]1[C@@]21CO1
  MIC90: 25 µg/mL (≈ 71.3 µM)

## C/C=C/C=C\C(=O)O[C@@H]1[C@@H](OC(C)=O)[C@H]2O[C@@H]3C=C(C)CC[C@]3(C)[C@]1(C)[C@]21CO1
  MIC90: 6.3 µg/mL (≈ 15.7 µM)

## CCCC(=O)O[C@@H]1[C@@H](O)[C@]2(C)[C@@]3(C)CCC(C)=C[C@H]3O[C@H]1[C@@]21CO1
  MIC90: > 50 µg/mL

Source: ChEMBL document CHEMBL4665731, “Antifungal trichothecene sesquiterpenes obtained from the culture broth of marine-derived Trichoderma cf. brevicompactum and their structure-activity relationship” (2020)
